Test system: Vero cell membranes
Test: Confocal microscopy of compound-treated Vero cells
Assay type: cell-based, African Green Monkey
Conditions: 10 µM, 1 h

| Compound | localisation in Vero cells |
| --- | --- |
| O=c1[nH]c(=O)n([C@H]2C[C@H](O)[C@@H](CO)O2)cc1C#Cc1ccc2c3cccc4cccc(c5cccc1c52)c43 [Compound 2, 5-(perylen-3-yl)ethynyl-2′-deoxy-uridine] | predominantly incorporated into the cytoplasmatic membrane and the nuclear envelope |
| O=C(NCCCCO)c1ccc(-c2ccc3c4cccc5cccc(c6cccc2c63)c54)s1 [Compound 17] | predominantly incorporated into the cytoplasmatic membrane and the nuclear envelope |
| CC(C)(C)C(=O)OCn1c(=O)c(C#Cc2ccc3c4cccc5cccc(c6cccc2c63)c54)cn(CC(=O)N(CCO)CCO)c1=O [Compound 13] | mainly localized in intracellular membranes and nuclear envelopes, and even in the nuclei |
| CN(C)c1ccc(C#Cc2ccc3c4cccc5cccc(c6cccc2c63)c54)cc1 [Compound 14] | preferentially accumulated inside the cytoplasmic vesicles |

Reference: paper PMC10307035, “Antiviral activity of singlet oxygen-photogenerating perylene compounds against SARS-CoV-2: Interaction with the viral envelope and photodynamic virion inactivation” (Virus Research, 2023)
